Test results taken from article PMC4634967, “Effects of Small Molecule Calcium-Activated Chloride Channel Inhibitors on Structure and Function of Accessory Cholera Enterotoxin (Ace) of Vibrio cholerae” (2015).

By UniProt entry, the sequences of proteins in these tests, tags left out. Where a name states a change or a piece, a line headed by the entry shows the natural chain unless it says otherwise.
UniProt P38441: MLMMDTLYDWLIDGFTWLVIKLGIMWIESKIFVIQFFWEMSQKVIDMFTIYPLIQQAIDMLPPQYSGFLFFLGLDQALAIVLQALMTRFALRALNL

Target: Ace (Accessory cholera enterotoxin) (Vibrio cholerae, UniProt P38441)
Test: thermal unfolding by far-UV CD at […] nm
Conditions: 0.1 M potassium phosphate pH 8.0; 5 μM protein; reference: native Ace 52 °C

Row | SMILES | T M [°C]
1 | CC(C)(C)C1CCc2c(sc(NC(=O)c3ccco3)c2C(=O)O)C1 (centres unmarked) | 57
2 | O=C(O)c1cc(O)c(O)c(OC(=O)c2cc(O)c(O)c(O)c2)c1 | 55
